We go through two compounds from US11484534B2, “Methods for treating HCV” (priority 2013, dated 2022).

Type in all cases: cell-based
For experiment [1], the system named is HCV Replicon Subtype Genotype 1a.
The test system of experiment [2] is HCV Replicon Subtype Genotype 1b.
For experiment [3], the system named is HCV Replicon Subtype Genotype 3a. Particulars: concentrations ≥100-fold over its EC50 value; GT3a NS3 protease replicon. A general note: Replicon systems follow genome replication, usually without infectious particles.
Experiment [4] concerns HCV NS3 and NS5A variants. Kind of experiment: Susceptibility of HCV variants found in the virologic failure patient, relative to wild-type replicon. The source says:
One patient experienced virologic failure at treatment week 6.

In the case of `CC(C)(C)[C@@H]1NC(=O)O[C@@H]2CCC[C@H]2OC/C=C/C(F)(F)c2nc3ccccc3nc2O[C@@H]2C[C@@H](C(=O)N[C@]3(C(=O)NS(=O)(=O)C4(C)CC4)C[C@H]3C(F)F)N(C2)C1=O` [Compound 1], the “activity against NS5A inhibitor and NS5B inhibitor resistance-associated variants” value in experiment [1] (M28T, M28V, Q30D, Q30R, Y93C, Y93H, Y93N, L31V+Y93H, C316Y, M414T, Y448C, Y448H, S556G and S559G in GT 1a) is “potent activity”; in experiment [2] (L28T, Y93H, S282T, C316Y, Y448H and S556G in GT 1b), “potent activity”. Besides, the “inhibitory activity against NS3 resistance-associated variants” value is on record as “nearly equivalent to that against wild-type HCV replicon” in experiment [1] (V36M, R155K, D168A and D168V in GT 1a (H77)); “nearly equivalent to that against wild-type HCV replicon” in experiment [2] (T54A, R155K, D168V and V170A in GT 1b (Con-1)). For the same compound, in experiment [3], the resistant colony selection entry is listed as “selected very few colonies”.
Turning to `COC(=O)N[C@H](C(=O)N1CCC[C@H]1c1nc2cc([C@H]3CC[C@H](c4cc5nc([C@@H]6CCCN6C(=O)[C@@H](NC(=O)OC)[C@@H](C)OC)[nH]c5cc4F)N3c3cc(F)c(N4CCC(c5ccc(F)cc5)CC4)c(F)c3)c(F)cc2[nH]1)[C@@H](C)OC` [Compound 2], the “increase in EC50 relative to that of the wild-type replicon” value in experiment [4] is above 5000 fold.
